Here are results for 110 compounds from PubChem BioAssay AID720596 (The Scripps Research Institute Molecular Screening Center, 2013).

Molecules are shown by their SMILES. The list shows a part of the results, in another mix than the full data. The source made the active and inactive calls. Rule as the data show it: active = inhibition above about 24%; inactive = the rest.

In this assay the target is Major prion protein (Homo sapiens) (UniProt P04156). The assay can be described thus: inhibitors of human cell surface prion protein PrPC, primary screen, cell-based, TR-FRET (AID 720596). Also: 0% = median of the test wells and 100% = reference compound wells. The conditions noted are these: TR-FRET read-out, at 13.8 µM, hits give high values. A general note: TR-FRET usually uses a lanthanide donor and a delayed reading to cut background.
Turning to `CCCCn1nnnc1C(c1cccc(OC)c1OC)N1CCC(n2c(=O)[nH]c3ccccc32)CC1` (stereo not given), the inhibition was inactive: 3.76%.
As to `O=c1[nH]c2ccccc2n1C1CCN(C(c2cccs2)c2nnnn2C2CCCC2)CC1` (stereo not given), the inhibition was inactive: 14.9%.
Turning to `O=C(OC1CN2CCC1CC2)C1c2ccccc2C=Cc2ccccc21` (stereo not given), the inhibition was inactive: -7.59%.
The figure for `N/C(=N\O)c1c(N)no[n+]1[O-]` is inactive: -3.37%.
The figure for `CCOC(=O)N1CCC(Nc2ccc(C)cc2)CC1` is inactive: -4.93%; for `COc1cccc(C(c2nnnn2C(C)(C)C)N2CCC(n3c(=O)[nH]c4ccccc43)CC2)c1OC` (stereo not given) it is inactive: 8.98%; for `O=c1[nH]c2ccccc2n1C1CCN(C(c2ccnc3ccccc23)c2nnnn2C2CCCC2)CC1` (stereo not given) it is inactive: 4.57%.
The figure for `COc1ccc(C(=O)NCC2(N3CCOCC3)CCCCC2)cc1OC` is inactive: -4.69%; for `NC(=O)C1(Nc2ccccc2)CCN(Cc2ccccc2)CC1` it is inactive: -7.15%.
Regarding `O=c1[nH]c2ccccc2n1C1CCN(C(c2cccs2)c2nnnn2C2CCCCC2)CC1` (stereo not given), the inhibition was inactive: 5.05%.
The figure for `O=C(NCC1(N2CCOCC2)CCCCC1)c1cc(Br)ccc1Cl` is inactive: -8%; for `COc1cc(C(=O)NCC2(N3CCOCC3)CCCCC2)cc(OC)c1C` it is inactive: -9.71%.
The value for `CCCCn1nnnc1C(c1ccccc1)N1CCC(n2c(=O)[nH]c3ccccc32)CC1` (stereo not given) was inactive: 5.92%; that for `CC(C)(C)n1nnnc1C(c1cccc2ccccc12)N1CCC(n2c(=O)[nH]c3ccccc32)CC1` (stereo not given) was inactive: 4.82%; that for `O=c1[nH]c2ccccc2n1C1CCN(C(c2ccccc2)c2nnnn2C2CCCC2)CC1` (stereo not given) was inactive: -0.94%.
The figure for `CCCN1CCC(Nc2cc(OC)cc(OC)c2)CC1` is inactive: -10.4%; for `Cc1cc(N(CCCl)CCCl)ccc1C=O` it is inactive: -5.67%.
Turning to `C/C(N)=N\P(=O)(Oc1ccccc1)Oc1ccccc1`, the inhibition is inactive: 10.4%.
The value for `c1ccc(CN2CCC(Nc3ccccc3)CC2)cc1` was inactive: -3.96%.
For `CN(C)C1(CNC(=O)c2cccc(C#N)c2)CCCCC1`, the inhibition is inactive: -3.87%.
The value for `CC(C)(C)OC(=O)N1CCC(N(C(=O)c2ccccc2)c2ccc(Cl)cc2)CC1` was inactive: 2.03%.
Turning to `N#Cc1ccc(C(=O)NCC2(N3CCCCC3)CCCCC2)cc1`, the inhibition was inactive: 0.03%.
The figure for `CN(C)c1ccc(C(=O)NCC2(N3CCCCC3)CCCCC2)cc1` is inactive: -7.42%.
`Cn1c(=O)[nH]cc(N(CCCl)CCCl)c1=O`: the inhibition was inactive: 3.05%.
The value for `O=C(NCC1(N2CCCCC2)CCCCC1)c1ccco1` was inactive: 1.16%; that for `COc1ccc(C(c2nnnn2C2CCCCC2)N2CCC(n3c(=O)[nH]c4ccccc43)CC2)cc1` (stereo not given) was inactive: -3.17%; that for `CCN1CCC(Nc2cccc(F)c2)CC1` was inactive: 10.1%.
The value for `CC(C)(C)n1nnnc1C(c1ccnc2ccccc12)N1CCC(n2c(=O)[nH]c3ccccc32)CC1` (stereo not given) was inactive: 2.22%; that for `Cc1ccccc1NC1(C#N)CCN(Cc2ccccc2)CC1` was inactive: 0.13%; that for `Cc1ccc(NC2(C#N)CCN(Cc3ccccc3)CC2)cc1` was inactive: 3.7%.
`Fc1ccccc1NC1CCN(Cc2ccccc2)CC1`: the inhibition was inactive: 2.11%.
Consider `Cc1ccc(C(=O)NCC2(N3CCCCC3)CCCCC2)o1`, for which the inhibition was inactive: -6.42%.
The figure for `COc1cc(OC)cc(C(=O)NCC2(N3CCCCC3)CCCCC2)c1` is inactive: -3.16%; for `O=c1[nH]c2ccccc2n1C1CCN(C(c2ccnc3ccccc23)c2nnnn2C2CCCCC2)CC1` (stereo not given) it is inactive: -1.74%.
The figure for `CCC(c1nnnn1C1CCCCC1)N1CCC(n2c(=O)[nH]c3ccccc32)CC1` (stereo not given) is inactive: 5.31%.
The value for `COc1cccc(C(c2nnnn2C2CCCCC2)N2CCC(n3c(=O)[nH]c4ccccc43)CC2)c1OC` (stereo not given) was inactive: 8.34%; that for `CC(=O)N(c1ccccc1)C1CCNCC1` was inactive: -7.58%.
As to `CN1CCC(Nc2ccc(Cl)cc2)CC1`, the inhibition was inactive: -1.6%.
The value for `CCC(CO)(C(=O)OC1CN2CCC1CC2)c1ccccc1` (stereo not given) was inactive: 6.32%.
The figure for `COc1cccc(C(=O)N(c2cc(C)cc(C)c2)C2CCN(C(=O)OC(C)(C)C)CC2)c1` is inactive: 3.99%; for `COc1cccc(C(c2nnnn2C2CCCC2)N2CCC(n3c(=O)[nH]c4ccccc43)CC2)c1OC` (stereo not given) it is inactive: 0.1%; for `COc1cc(OC)cc(C(=O)NCC2(N3CCOCC3)CCCCC2)c1` it is inactive: -3.72%.
As for `O=c1[nH]c2ccccc2n1C1CCN(C(c2cc3ccccc3o2)c2nnnn2C2CCCC2)CC1` (stereo not given), the inhibition is inactive: -0.89%.
The value for `CCCOc1ccc(C(=O)NCC2(N(C)C)CCCCC2)cc1` was inactive: -10.7%; that for `NN(c1ccccc1)C1CCN(CCc2ccccc2)CC1` was inactive: -3.29%.
The value for `O=C(O)C1(Nc2ccccc2)CCN(Cc2ccccc2)CC1` was inactive: -4.21%; that for `CC(C)(C)OC(=O)N1CCC(Nc2ccccc2)CC1` was inactive: -7.89%.
The value for `CN1CCC(Nc2ccc(F)c(Cl)c2)CC1` was inactive: -0.21%.
For `CCOc1ncccc1C(=O)NCC1(N2CCOCC2)CCCCC1`, the inhibition was inactive: -8.16%.
The figure for `CCCCn1nnnc1C(c1ccc(OC)cc1)N1CCC(n2c(=O)[nH]c3ccccc32)CC1` (stereo not given) is inactive: -6.64%; for `CCOC(=O)N1CCC(Nc2ccc(OC)cc2)CC1` it is inactive: 1.11%.
Take `COc1ccc(Cl)cc1C(=O)NCC1(N2CCOCC2)CCCCC1`: the inhibition was inactive: 1.24%.
The figure for `N#CC1(Nc2ccccc2)CCN(Cc2ccccc2)CC1` is inactive: 4.92%; for `O=C(NCC1(N2CCCCC2)CCCCC1)c1ccc(Cl)s1` it is inactive: -3.97%; for `O=c1[nH]c2ccccc2n1C1CCN(C(c2cc3ccccc3o2)c2nnnn2C2CCCCC2)CC1` (stereo not given) it is inactive: -5.55%.
The value for `O=C(OC1CN2CCC1CC2)C1c2ccccc2Oc2ccccc21` (stereo not given) was inactive: 7.55%; that for `O=C(NCC1(N2CCOCC2)CCCCC1)c1cc2ccccc2o1` was inactive: -3.32%.
On to `Cc1cc(C)cc(N(C(=O)c2ccccc2)C2CCN(C(=O)OC(C)(C)C)CC2)c1`, for which the inhibition was inactive: 3.18%.
The value for `O=C(NCC1(N2CCCCC2)CCCCC1)c1ccc(Cl)nc1` was inactive: -1.65%.
The value for `O=c1[nH]c2ccccc2n1C1CCN(C(c2ccccc2OC(F)(F)F)c2nnnn2C2CCCCC2)CC1` (stereo not given) was inactive: 8.8%.
With `Cc1cccc(NC2(C#N)CCN(Cc3ccccc3)CC2)c1`, the inhibition was inactive: 8.95%.
The value for `CSc1ccccc1C(=O)NCC1(N2CCCCC2)CCCCC1` was inactive: -0.7%; that for `CCCCn1nnnc1C(CC)N1CCC(n2c(=O)[nH]c3ccccc32)CC1` (stereo not given) was inactive: 4.24%.
The value for `O=C(NCC1(N2CCCCC2)CCCCC1)c1cccs1` was inactive: -6.55%.
`CCCCn1nnnc1C(c1cccs1)N1CCC(n2c(=O)[nH]c3ccccc32)CC1` (stereo not given): the inhibition is inactive: 7.85%.
`O=C(NCC1(N2CCCCC2)CCCCC1)c1ccc(=O)[nH]c1`: the inhibition was inactive: -13%.
The figure for `COc1ccc(C(=O)NCC2(N3CCCCC3)CCCCC2)c(OC)c1OC` is inactive: -5.14%; for `CC(C)(C)OC(=O)N1CCC(N(C(=O)c2ccccc2)c2ccc(F)cc2)CC1` it is inactive: 0.14%; for `CCC(c1nnnn1C1CCCC1)N1CCC(n2c(=O)[nH]c3ccccc32)CC1` (stereo not given) it is inactive: -2.77%.
The figure for `COc1ccc(C(=O)NCC2(N3CCCCC3)CCCCC2)cc1` is inactive: -10.4%; for `O=c1[nH]c2ccccc2n1C1CCN(C(c2cccc3ccccc23)c2nnnn2C2CCCC2)CC1` (stereo not given) it is inactive: 6.68%; for `CCOC(=O)N1CCC(Nc2cccc(C)c2)CC1` it is inactive: 7.78%.
The value for `COc1cc(C(=O)NCC2(N(C)C)CCCCC2)ccc1OC(F)F` was inactive: -16.4%; that for `O=c1[nH]c2ccccc2n1C1CCN(C(c2ccccc2)c2nnnn2C2CCCCC2)CC1` (stereo not given) was inactive: -4.22%.
Take `CCOC(=O)N1CCC(Nc2ccc(F)cc2)CC1`: the inhibition was inactive: 9.25%.
The value for `COc1ccc(NC2CCN(CCc3ccccc3)CC2)c(OC)c1` was inactive: -5.43%.
The figure for `CCCCOc1ccc(C(=O)NCC2(N3CCOCC3)CCCCC2)cc1` is inactive: -2.08%; for `O=P1(N(CCCl)CCCl)SCCCS1` it is inactive: -3.62%.
The figure for `CCCCn1nnnc1C(c1cc2ccccc2o1)N1CCC(n2c(=O)[nH]c3ccccc32)CC1` (stereo not given) is inactive: 1.99%.
Take `O=C(NCC1(N2CCCCC2)CCCCC1)c1ccc(F)cc1`: the inhibition was inactive: -2.42%.
Turning to `CCOc1ccc(C)cc1CN(CCCl)CCCl`, the inhibition was inactive: 6.66%.
The value for `O=C1CCN(Cc2ccccc2)CC1` was inactive: -7.13%; that for `CC(C)(C)n1nnnc1C(c1ccccc1)N1CCC(n2c(=O)[nH]c3ccccc32)CC1` (stereo not given) was inactive: 9.41%.
As for `COc1ccc(NC2CCN(C(=O)OC(C)(C)C)CC2)cc1`, the inhibition is inactive: 4.65%.
The figure for `CC(C)c1ccc(C(=O)NCC2(N3CCOCC3)CCCCC2)cc1` is inactive: -3.62%.
The value for `CN1CCN(CCOC(=O)C(O)(c2ccccc2)c2ccccc2)CC1` was inactive: 2.04%.
`CCCCn1nnnc1C(c1cccc2ccccc12)N1CCC(n2c(=O)[nH]c3ccccc32)CC1` (stereo not given): the inhibition is inactive: 3.02%.
The figure for `O=C(NCC1(N2CCOCC2)CCCCC1)c1cc(=O)[nH]c2ccccc12` is inactive: -3.81%.
With `COc1cc(C(=O)NCC2(N3CCCCC3)CCCCC2)ccc1OC(F)F`, the inhibition is inactive: 6.21%.
`O=C(NCC1(N2CCCCC2)CCCCC1)c1cccc(C(F)(F)F)c1`: the inhibition was inactive: 1.98%.
The figure for `CSc1ccc(C(=O)NCC2(N3CCOCC3)CCCCC2)cc1` is inactive: 2.05%; for `O=C(NCC1(N2CCCCC2)CCCCC1)c1cccc([N+](=O)[O-])c1` it is inactive: -6.06%; for `O=c1[nH]c2ccccc2n1C1CCN(C(c2ccccc2OC(F)(F)F)c2nnnn2C2CCCC2)CC1` (stereo not given) it is inactive: -1.4%.
The figure for `N#CC1(Nc2ccccc2)CCN(CCc2ccccc2)CC1` is inactive: 4.22%; for `CCN1CCC(Nc2ccc(Cl)cc2)CC1` it is inactive: -6.68%.
The figure for `O=C(NCC1(N2CCCCC2)CCCCC1)c1ccc(OC(F)F)cc1` is inactive: -1.14%; for `CC(C)(C)n1nnnc1C(c1ccccc1OC(F)(F)F)N1CCC(n2c(=O)[nH]c3ccccc32)CC1` (stereo not given) it is inactive: 2.94%.
Regarding `CCCOc1ccc(C(=O)NCC2(N(C)C)CCCCC2)cc1OC`, the inhibition is inactive: -5.91%.
Take `Cc1ccc(C(=O)NCC2(N(C)C)CCCCC2)o1`: the inhibition was inactive: 3.91%.
The figure for `COc1ccc(C(c2nnnn2C2CCCC2)N2CCC(n3c(=O)[nH]c4ccccc43)CC2)cc1` (stereo not given) is inactive: 9.94%; for `CN1CCC(Nc2cccc(F)c2)CC1` it is inactive: -0.04%; for `O=C(NCC1(N2CCCCC2)CCCCC1)c1cncc(Br)c1` it is inactive: -7.78%.
The figure for `CCCCn1nnnc1C(c1ccnc2ccccc12)N1CCC(n2c(=O)[nH]c3ccccc32)CC1` (stereo not given) is inactive: -0.2%; for `O=C(NCC1(N2CCOCC2)CCCCC1)c1cc(F)c(F)cc1Cl` it is inactive: -5.73%; for `CCC(c1nnnn1C(C)(C)C)N1CCC(n2c(=O)[nH]c3ccccc32)CC1` (stereo not given) it is inactive: -1.63%.
The value for `COc1cc(OC)c(C(=O)NCC2(N(C)C)CCCCC2)cc1OC` was inactive: -3.39%.
With `CN(C)c1cccc(C(=O)NCC2(N3CCCCC3)CCCCC2)c1`, the inhibition is inactive: -5.61%.
The figure for `COc1ccc(CN(CCCl)CCCl)cc1Cl` is inactive: 5.22%.
The figure for `COC(=O)C1(Nc2ccccc2)CCN(Cc2ccccc2)CC1` is inactive: 1.72%.
The figure for `CC(C)c1ccc(NC2CCN(C(=O)OC(C)(C)C)CC2)cc1` is inactive: -0.06%.

As usually defined, the inhibition is the relative decrease from the control value, in per cent.
